A mixed list of measured activities; the numbers were collected in NIAID ChemDB.

All rows: whole-cell or culture tests; organism: Herpes simplex virus 2; read by: cytopathic effect; measure: EC50

Conditions beyond the fields shown may differ between rows. ECn is the concentration giving n% inhibition of infection, replication or growth. Blank or dashed fields: not listed here.

smiles | cells | strain | result
COC(=O)[C@H](C)NP(=O)(OC[C@H]1C/C1=C/n1cnc2c(=O)[nH]c(N)nc21)Oc1ccccc1 | HFF |  | 181 µM
CC(C)CS[C@H]1C[C@@H](n2cnc3c(N)ncnc32)[C@H](O)[C@@H]1O | E6SM | G | 400 µg/mL
Nc1nc2c(ncn2COCCO)c(=O)[nH]1 | PRK | G | 0.04 µg/mL
CC=NC(=N)c1nc(-c2ccc(C)cc2)n(Cc2ccccc2)n1 | E6SM | G | >4 µg/mL
Nc1nc(=O)n([C@@H]2S[C@H](CO)[C@@H](O)[C@@H]2F)cc1I |  | MS | 0.32 µg/mL
COc1ccc(-c2cn3c(=O)c4ncn(COC(CO)CO)c4nc3[nH]2)cc1 |  | G | 0.03 µg/mL
CC1(C)[C@@H](CCO)C[C@H]1n1nnc2c(Cl)nc(N)nc21 | E6SM | G | >100 µg/mL
Nc1ncnc2c1ncn2/C=C1/C[C@H]1CO | HFF |  | 430 µM
O=c1c2ncn(COC(CO)CO)c2[nH]c2nccn12 |  | 196 | 2 µg/mL
Nc1nc(Cl)nc2c1ncn2[C@H]1S[C@H](CO)[C@@H](O)[C@@H]1F |  | MS | >27 µg/mL
CC=NC(=N)c1nc(-c2ccccc2)n(C/C=C/c2ccccc2)n1 | E6SM | G | >4 µg/mL
Nc1nc(N)c2ncn(C=C3CC3CO)c2n1 | HFF |  | 430 µM
O=c1c2ncn(COC(CO)CO)c2nc2[nH]c(-c3ccccc3)cn12 |  | 196 | 0.02 µg/mL
Nc1nc(Cl)nc2c1ncn2[C@@H]1S[C@H](CO)[C@@H](O)[C@@H]1F |  | MS | 9 µg/mL
CC=NC(=N)c1nc(-c2ccc(C)cc2)n(COCCO)n1 | E6SM | G | >40 µg/mL
CC1(C)[C@@H](CCO)C[C@H]1n1cnc2c(=O)[nH]c(N)nc21 | E6SM | G | >400 µg/mL
[N-]=[N+]=N[C@@H]1[C@@H](OP(=O)(O)OC[C@H]2O[C@@H](n3cnc4c(N)ncnc43)[C@H](OP(=O)(O)OCCOCn3cnc4c(=O)[nH]c(N)nc43)[C@H]2N=[N+]=[N-])[C@H](n2cnc3c(N)ncnc32)O[C@@H]1CO | PRK | LYONS | 2 µg/mL
Nc1nc(=O)n(C2CC(O)C(CO)O2)cc1CCCl | PRK | LYONS | 5 µg/mL
CCc1cn([C@@H]2S[C@H](CO)[C@@H](O)[C@@H]2F)c(=O)[nH]c1=O |  | MS | 0.11 µg/mL
CCc1cn([C@H]2C[C@H](O)[C@@H](CO)O2)c(=O)[nH]c1=O | PRK | 196 | 0.2 µg/mL
CC=NC(=N)c1nc(-c2ccc(OC)cc2)n(C/C=C/c2ccccc2)n1 | E6SM | G | >10 µg/mL
CC1(C)[C@@H](CCO)C[C@H]1n1nnc2c(=O)[nH]c(N)nc21 | E6SM | G | 300 µg/mL
Nc1ncnc2c1c(Br)cn2COCCO | VERO |  | 100 µM
[N-]=[N+]=Nc1cccc(/C=C/c2cn([C@H]3C[C@H](O)[C@@H](COP(=O)(O)O)O3)c(=O)[nH]c2=O)c1 | PRK | LYONS | >200 µg/mL
Nc1nc(N)c2ncn([C@@H]3S[C@H](CO)[C@@H](O)[C@@H]3F)c2n1 |  | MS | 0.037 µg/mL
O=c1[nH]c(=O)n([C@H]2C[C@H](O)[C@@H](COP(=O)(O)O)O2)cc1CCc1ccccc1 | PRK | LYONS | 15 µg/mL
CCc1cn([C@H]2S[C@H](CO)[C@@H](O)[C@@H]2F)c(=O)[nH]c1=O |  | MS | 27 µg/mL
CCCCOC[C@H]1O[C@@H]2CC(C)(C)C[C@@H]2[C@H]1OCCCC | E6SM | G | >80 µg/mL
CCCCCCCC/C=C/CCCCCCCC(=O)O | HEL | G | >100 µM
Nc1nc2c(ncn2COCCO)c(=O)[nH]1 | HFF | 16053 8702 (acyclovir-susceptible) | 1 µg/mL
O=c1[nH]c(=O)n([C@H]2C[C@H](O)[C@@H](CO)O2)cc1F | PRK | LYONS | >100 µg/mL
O=c1[nH]c(=O)n([C@H]2S[C@H](CO)[C@@H](O)[C@@H]2F)cc1F |  | MS | >27 µg/mL
COC(=O)[C@H](C)NP(=O)(OC[C@H]1C/C1=C/n1cnc2c(OC)nc(N)nc21)Oc1ccccc1 | HFF |  | 0.76 µM
CCCCCCCC/C=C/CCCCCCCC(=O)OCC(CO)OCn1cnc2c(=O)[nH]c(N)nc21 | HEL | G | 0.0012 µM
O=c1c2ncn(COCCO)c2[nH]c2ncc(CO)n12 |  | 196 | >3.2 µg/mL
COc1nc(N)nc2c1ncn2C=C1CC1CO | HFF |  | 364 µM
Nc1nc2c(ncn2[C@@H]2S[C@H](CO)[C@@H](O)[C@@H]2F)c(=O)[nH]1 |  | MS | 0.037 µg/mL
Nc1nc2c(ncn2C=C2CC2CO)c(=O)[nH]1 | HFF |  | 429 µM
CC(=O)OC[C@H]1O[C@@H](c2ccccc2)C[C@@H]1OC(C)=O | E6SM | G | >400 µg/mL
O=c1c2ncn(COCCO)c2[nH]c2ncc(C(c3ccccc3)(c3ccccc3)c3ccccc3)n12 |  | G | >16 µg/mL